Measurements reported in the NIST ThermoML archive (doi:10.1016/j.tca.2014.11.027).
± gives the expanded uncertainty stated by the source.

Conditions: Liquid; Gas Chromatography

For `CCCCO[PH](=O)OCCCC` [dibutyl phosphonate], the Normal boiling temperature was 272.93 ± 2 °C.
